Data reported in US11713302B2, “Sulfonamide benzamide derivative and preparation method and application thereof” (WEIFANG MEDICAL UNIVERSITY, priority 2021, dated 2023).

Tested on: HBV DNA
Experiment: HBV DNA activity inhibition assay (quantitative PCR) in HepAD38 cells
Assay type: cell-based, hepatitis B virus (HBV)
Details: selectivity index SI=CC50/IC50
Description: HBV stably transfected hepatocellular carcinoma cell line, HepAD38, was able to secrete HBV viral particles (containing HBsAg, HBeAg and DNA) when the cells were cultured. The amount of HBsAg and HBeAg secreted by the cells and the DNA produced varied under the intervention of anti-HBV target compounds, so the antiviral activity of the sample drug could be calculated by measuring the amount of HBsAg and HBeAg secreted by the cells into the culture supernatant and the HBV DNA produced, with reference to the amount in the unspiked control. Using entecavir as a positive control drug, the concentration of the drug at 50% inhibition of HBV DNA was measured by quantitative PCR at the value of IC50; the concentration of the sample drug causing 50% cell death was measured by CCK-8 at the value of CC50, and the “selectivity index” of the compound to be tested was calculated. SI=CC50/IC50. (1) Cytotoxicity assay
(2) HBV DNA Activity Inhibition Assay (Quantitative PCR Method)
HepAD38 cells were cultured in 96-well cell culture plate for 24 hours, then 10 μM, 2 μM, 0.4 μM, 0.08 μM and […] drug-containing medium was added and the cells were incubated for 10 days (changed every 2 days), the supernatant was collected and the supernatant HBV DNA content was measured by quantitative PCR.

Q: Which SI does the source give for `O=C(Nc1ccc(F)c(Cl)c1)c1cc(S(=O)(=O)NC2CCCC2)cc2c1OCCO2` [Compound 5b] here?
A: >100

Q: With `O=C(Nc1ccc(F)c(Cl)c1)c1cc(S(=O)(=O)NC2CCCCC2)cc2c1OCCO2` [Compound 5c] as the compound, how does the SI read?
A: >100

Q: Which SI does the source give for `CC(C)NS(=O)(=O)c1cc2c(c(C(=O)Nc3ccc(F)c(Cl)c3)c1)OCCO2` [Compound 5k] here?
A: >100

Q: Which SI does the source give for `C=C1[C@H](CO)[C@@H](O)C[C@@H]1n1cnc2c(=O)[nH]c(N)nc21` [ETV, entecavir, reference compound] here?
A: >100
